# Laboratory results reported in article PMC9603946, “On the Sensitivity of the Virion Envelope to Lipid Peroxidation” (Microbiology Spectrum, 2022).
# Key:
# HSV-1 [1] = assay: HSV-1 virion infectivity (plaquing efficiency) on Vero cells after virion pretreatment; conditions: BSA present together with peroxidator, 2 h at 37°C
# Description: (§1) The inocula were removed, and the cells were washed and then incubated at 37°C in 5% CO2 until plaques were visible and well-resolved (about 2 days), at which time they were fixed and stained with crystal violet.
# (§2) HSV-1 suspensions of 20,000 plaque PFU in 250 μL DMEM were mixed 1:1 with 2-fold serial dilutions of the general peroxidators and were incubated in a water bath for 2 h at 37°C. Next, treated virions were diluted 1:100 before being adsorbed onto cells for 1 h at 37°C. The inocula were removed, and the cells were washed twice with cold DMEM. Infected cells were overlaid with DMEM supplemented with 2% (Vero) or 1% (HFF) methylcellulose and 5% FBS and were incubated at 37°C until plaques were visible and well-resolved, typically in about 2 days. Cell monolayers were fixed and stained with 1% crystal violet in 17% methanol for 18 h at RT. The cells were washed, and the plaques were counted and normalized to those produced by the vehicle treated virions.
# (§3) To test the effects of lipid soluble antioxidants on virions, 10 μM vitamin E loaded onto 1% carrier BSA in the dark for 4.5 h at RT was incubated with 10^6 HSV-1 virions for 3 h at 37°C. […] The treated virions were diluted 1:100 before infecting cells. […] The mix was incubated for 2 h at 37°C, diluted 1:100, and used to infect cells. The infectivity of an aliquot of treated virions was tested via a plaque assay.
# Vero cells = assay: Vero cell lipid peroxidation probed with liperfluo; assay type: cell-based, African green monkey; conditions: Liperfluo probe
# Description: (§4) The effects of peroxidators have been commonly evaluated against purified lipids and liposomes as a proxy, but they have not been evaluated against virions ([50], [53][–][55]). We instead directly evaluated the extent of virion lipid peroxidation.
# To evaluate cell lipid peroxidation using liperfluo, 7.5 × 10^3 Vero cells were seeded into each well of 96-well plates and incubated for 18 h at 37°C in 5% CO2. […] Two hours later, the cells were washed twice, and the fluorescence was evaluated in a TECAN Infinite M200 Pro at 515 nm excitation and 545 nm emission.
# (§5) To evaluate the effects of a lipid soluble antioxidant, cells or virions were preloaded with vitamin E-BSA for 3 h at 37°C. Vitamin E-BSA containing medium was removed, and the cells were washed twice with DMEM. Liperfluo (20 or 10 μM for cells or virions, respectively) or C11-Bodipy (1 μM for cells or 0.1 mol% for virions) were preloaded into the cells or virions for 30 min at 37°C.
# (§6) To evaluate the effects of water soluble antioxidants, liperfluo (20 μM for cells or 10 μM for virions) or C11-Bodipy (1 μM for cells or 0.1 mol% for virions) were preloaded into the cells or virions for 30 min at 37°C. […] Fluorescence was evaluated in a TECAN Infinite M200 Pro at 515 nm excitation and 545 nm emission for liperfluo or at 550 nm excitation and 580 to 630 nm emission for C11-Bodipy.
# HSV-1 [2] = assay: HSV-1 virion infectivity (plaquing efficiency) on HFF cells after virion pretreatment
# Description: as §1, §2, §3
# HSV-1 virions = assay: HSV-1 virion lipid peroxidation probed with C11-Bodipy; parameters: species or system HSV-1 KOS; conditions: Bodipy probe
# Description: as §4
# To evaluate virion lipoperoxidation with C11-Bodipy, 50 μL DMEM containing 5 × 10^6 PFU of HSV-1 was added into each well of 96-well plates. Virions were then preloaded with 0.1 mol % of C11-Bodipy for 30 min at 37°C. […] Fluorescence was evaluated in a TECAN Infinite M200 Pro at 550 nm excitation and 580 to 630 nm emission with the reading peak at 600 nm.
# as §5, §6
SMILES,fold increase of EC50 by carrier BSA (HSV-1 [1]) [fold],"LPP, CP50 (antioxidant)/CP50 (Vero cells; vitamin C)","LPP, CP50 (antioxidant)/CP50 (Vero cells; vitamin E)",PI (cells)/PI (virus) (HSV-1 [2]; vitamin C),PI (cells)/PI (virus) (HSV-1 [2]; vitamin E),"PI, EC50 (antioxidant)/EC50 (HSV-1 [2]; vitamin E)","LPI, CP50/VP50 (HSV-1 virions; no antioxidant)","LPI, CP50/VP50 (HSV-1 virions; vitamin C)","LPP of LPI row, LPI(virus)/LPI(cell) (HSV-1 virions; vitamin C)","LPP, VP50 (antioxidant)/VP50 (HSV-1 virions; vitamin C)","LPI, CP50/VP50 (HSV-1 virions; vitamin E)","LPP of LPI row, LPI(virus)/LPI(cell) (HSV-1 virions; vitamin E)","LPP, VP50 (antioxidant)/VP50 (HSV-1 virions; vitamin E)","PI, EC50 (antioxidant)/EC50 (HSV-1 [2]; vitamin C)"
"CC(C)(N=NC(C)(C)C(=N)N)C(=N)N.Cl.Cl [AAPH, 2,2′-azobis(2-methylpropionamidine) dihydrochloride]",2,1.0,1.0,0.2,0.4,1.3 ^*,,,,,,,,
"CC(C)CC(C)(C#N)N=NC(C)(C#N)CC(C)C (stereo not shown) [AMVN, 2,2′-azobis(2,4-dimethylvaleronitrile)]",4,,1.3,0.7,0.4,2.5,0.8,0.9,1.1,0.7,1.5,1.9^f,0.9^e,1.3

# Marks after values point to notes of the source that are not given here.
